{"source": "patent US10278869B2", "about": "“Apparatus for aspirating, irrigating and cleansing wounds” (SMITH & NEPHEW PLC, priority 2002, dated 2019)", "system": "Staphylococcus epidermidis", "assay": "Infusion of antibiotic from dialysate circuit to wound circuit, quantitative zone of inhibition assay", "settings": "over 230 min; 400 KD MWCO hollow fibre dialysis unit"}
{"substance": "gentamycin sulphate", "values": [{"measurement": "gentamycin levels in the dialysate circuit", "value": "steady decrease"}, {"measurement": "level of gentamycin in the wound circuit", "value": "increases steadily over 230 min"}]}
